PSTVd loop 6 mutant pool in Nicotiana benthamiana

Data from the supplement of Wu et al. 2024, doi:10.1371/journal.ppat.1012142.

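A pool of all variants was put on leaves of three Nicotiana benthamiana plants. Progeny were sequenced from the inoculated region (day 5), the margin of the inoculated leaf (day 10) and systemic leaves (day 12).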

PSTVd intermediate strain, loop 6: wild type UGACCGCGAG, pool pattern UNNNCGNNNG; upper and lower strand joined, each 5' to 3', the first 5 letters being the upper strand, closing pairs included.

Values are reads per thousand in the sample; higher means more abundant, 0 means not found.
Each value is the mean of three plants.
"Pool" is the share in the plasmid pool used as inoculum, on the same scale.
The inoculated region was read from the minus strand, the other sites from the plus strand.
Sequences that differ at fixed positions probably stem from PCR or sequencing errors, and defective variants can be carried along by functional ones.
Wild type was 20.7 per thousand in the pool and the most common sequence in every sample (inoculated region 195, 198, 203; leaf margin 629, 591, 734; systemic leaves 942, 870, 868).
Samples held 36,220 to 57,551 reads, so the smallest values rest on one or two reads.

- UUUGCGCGCG (pool 0.261) -> inoculated region 0.0838; leaf margin 0.0169; systemic leaves 0
- UGACCGCCAG (pool 0.0915) -> inoculated region 0.114; leaf margin 0.236; systemic leaves 0.0995
- UGAUCGAUUG (pool 0.392) -> inoculated region 0.107; leaf margin 0; systemic leaves 0
- UACCCGAAGG (pool 0.118) -> inoculated region 0.131; leaf margin 0.00773; systemic leaves 0
- UUUGCGUUUG (pool 0.431) -> inoculated region 0.106; leaf margin 0.0184; systemic leaves 0
- UGGCCGAAAG (pool 0.261) -> inoculated region 0.152; leaf margin 0.0339; systemic leaves 0
- UACUCGUUGG (pool 0.275) -> inoculated region 0.0833; leaf margin 0; systemic leaves 0
- UAUUCGGAAG (pool 0.118) -> inoculated region 0.0768; leaf margin 0; systemic leaves 0
- UUCUCGGCGG (pool 0.353) -> inoculated region 0.155; leaf margin 0; systemic leaves 0
- UGACAGCGUG (pool 0.0131) -> inoculated region 0.561; leaf margin 0.124; systemic leaves 0.0120
- UGCACGCCUG (pool 0.248) -> inoculated region 0.130; leaf margin 0.00841; systemic leaves 0
- UAGACGACGG (pool 0.209) -> inoculated region 0.0951; leaf margin 0; systemic leaves 0
- UGGACGACUG (pool 0.288) -> inoculated region 0.125; leaf margin 0; systemic leaves 0.00684
- UAACCGAUCG (pool 0.170) -> inoculated region 0.0777; leaf margin 0; systemic leaves 0
- UCGUCGUAGG (pool 0.261) -> inoculated region 0.0835; leaf margin 0.00920; systemic leaves 0
- UUAGCGCAAG (pool 0.144) -> inoculated region 0.143; leaf margin 0.0353; systemic leaves 0
- UGGCCGGACG (pool 0.275) -> inoculated region 0.114; leaf margin 0.00920; systemic leaves 0
- UUCACGAUUG (pool 0.379) -> inoculated region 0.101; leaf margin 0; systemic leaves 0
- UGUACGACAG (pool 0.340) -> inoculated region 0.0894; leaf margin 0; systemic leaves 0
- UGCCCGCGAG (pool 0.144) -> inoculated region 0.251; leaf margin 0.410; systemic leaves 0.373
- UGCCCGGGGG (pool 0.131) -> inoculated region 0.119; leaf margin 0; systemic leaves 0
- UGGCCGUUGG (pool 0.366) -> inoculated region 0.188; leaf margin 0.0155; systemic leaves 0.00684
- UACCCGAUCG (pool 0.248) -> inoculated region 0.112; leaf margin 0; systemic leaves 0
- UUGGCGUUGG (pool 0.392) -> inoculated region 0.0955; leaf margin 0; systemic leaves 0
- UCUUCGGUCG (pool 0.288) -> inoculated region 0.125; leaf margin 0; systemic leaves 0

Excerpt, the final 3 entries:

With UACCCGAUCG (pool 0.248) the assay gave inoculated region 0.112; leaf margin 0; systemic leaves 0.
With UUGGCGUUGG (pool 0.392) the assay gave inoculated region 0.0955; leaf margin 0; systemic leaves 0.
With UCUUCGGUCG (pool 0.288) the assay gave inoculated region 0.125; leaf margin 0; systemic leaves 0.